The values below come from US8173673B2, “Biofilm-inhibiting effect and anti-infective activity of N,C-linked aryl isoquinolines and the use thereof” (Julius-Maximilians-Universitaet Wuerzburg, priority 2006, dated 2012).

Holding throughout (format): cell-based
Data set [1] has as its system Leishmania major-promastigotes (MHOM/IL81/FE/BNI). Put plainly: Alamar Blue activity test against Leishmania major promastigotes. To be noted: ratio of cytotoxicity against J774.1 macrophages to activity against Leishmania major. On the procedure:
Leishmania major-promastigotes (MHOM/IL81/FE/BNI) were cultivated in blood agar-cultures at 26° C., 5% CO2, and 95% humidity. For the experiment, the promastigotes were washed twice with saline phosphate buffer (PBS) and subsequently suspended (10^8 cells/ml) in Click-RPMI-1640-medium without phenol red, spiked with 10% FCS, 2 mM L-glutamine, 1.0 mM HEPES-buffer, pH 7.2, 100 μg/ml penicillin, […] gentamycin, 7.5% NaHCO3 and 50 μM 2-mercaptoethanol (culture medium). For the determination of activity, 200 μl of the promastigote-suspension in microtiter plates were each incubated with the compounds in a geometric series of dilutions for 24 hours at 26° C., 5% CO2, and 95% humidity. Subsequently, 20 μl Alamar Blue (Trinova Biochem, Gieβen, Germany) were added to each of the microcultures, and the cultures were incubated further. Cultures that only contained medium and the compound, or only cellular suspension (without compound), served as controls. The optical density was measured after another 24 hours with an ELISA-reader at the wave lengths 550 nm and 630 nm. The IC50-values of the compounds were calculated through linear interpolation (J. Mikes, D. Steverding. Parasitol. Int. 2000, 48, 265-269). […]

Data set [2] has as its system Trypanosoma brucei brucei strain TC-221. Description: Alamar Blue anti-trypanosome test, bloodstream forms. To be noted: ratio of cytotoxicity (J774.1 macrophages) to activity against Trypanosoma brucei brucei. On the procedure: Bloodstream-forms of the strain TC-221 of Trypanosoma brucei brucei were cultivated in enriched Baltz-culture medium in an atmosphere von 5% CO2 at 37° C. For activity determinations, a defined number of pathogens (10^4 trypanosomes per ml) were incubated in 96-well-plates with the compounds in different concentrations for 48 to 72 hours. The effect of the drugs was quantifiable using the ED50-values with linear interpolation. The trypanocidal activity of the test compounds was determined through measuring absorption on an MR 700 microplate reader (test wavelength 550 nm, reference wavelength 630 nm) by means of Alamar Blue®, an indicator of metabolic cellular functions. The addition of the dye took place 24 hours after starting the incubation. The color change of Alamar Blue® as used in this absorption measurements is based on reduction processes involving NADH or NADH-dependent enzymes. Incubation times and the concentrations of dye as required correlate with the metabolic activities of the trypanosomes. The MIC-value (minimum inhibitory concentration) was determined microscopically through counting of living cells in Neubauer-counting chambers. Suramine Na served both as positive control and reference.
The anti-trypanosomal activities of the compounds of the general structures 1-3 were studied based on a series of examples according to the above-described methods. The therapeutic index is the ratio of the cytoxicity (J774.1 macrophages) to the activities against Trypanosoma brucei brucei.

Data set [3] deals with Plasmodium falciparum strain K1. Description: [3H]-hypoxanthine-inclusion-test, anti-plasmodium activity. The note with it: ratio of IC50 for rat myoblasts (L-6-cells) to IC50 for Plasmodium falciparum. The source says: For the determination of the anti-plasmodium activities, cultures of Plasmodium falciparum strain K1 (resistant against chloroquine and pyrimethamine) were used. A modification (R. G. Ridley, W. Hofheinz, if Matile, C. Jacquet, A. Dorn, R. Masciadri, S. Jolidon, W. F. Richter, A. Guenzi, M. A. Girometta, H. Urwyler, W. Huber, S. Thaitong, W. Peters, Antimicrob. Agents Chemother. 1996, 40, 1846-1854) of the [^3H]-hypoxanthine-inclusion-test (R. E. Desjardins, C. J. Canfield, D. Haynes, J. Chulay, Antimicrob. Agents Chemother. 1979, 16, 710-718) was used. Human red blood cells infected with P. falciparum (0.3% infection) at a hematocrit of 2.5% (volume fraction of the red blood cells) in RPMI 1640 medium with the serum replacement Albumax II (5 g/L) were incubated with serial dilutions of the drugs in microtiter plates for 48 hours at 37° C. under a CO2-enriched and O2-reduced atmosphere. Then, 0.5 μCi [^3H]-hypoxanthine were added to each well of the microtiter plate, and after a further 24 hours of incubation time the wells were harvested with a Betaplate Cell Harvester onto glass fiber filters, and lysed with distilled water. The incorporation of radio-labeled hypoxanthine (which correlates with the quantity of living parasites) was determined using a scintillation counter. The IC50 value was determined from sigmoidal inhibition curves. The tests were performed in duplicate, and repeated at least once. Parasite cultures without additive served as control (100% incorporation), cultures with a dilution series of chloroquine served as positive control.
The anti-plasmodia activities of the compounds of the general structures 1-3 were studied based on a series of examples according to the above-described methods. The therapeutic index is the ratio of the IC50 values for rat myoblasts (L-6-cells=cytotoxicity) to the IC50 values for Plasmodium falciparum.

With `COc1cc(OC)c2c(C)[n+](-c3ccc(C)cc3)c(C)cc2c1` [B], in data set [1], the Therapeutic index is 13.

As for `COc1cc2c(c(OC)c1)C(C)=[N+](c1cccc3ccccc13)[C@@H](C)C2` [Compound 2a, (3S)—N,1′-naphthyl-6,8-dimethoxy-1,3-dimethyl-3,4-dihydroisoquinolinium-trifluoro-acetate], the Therapeutic index in data set [2] is recorded as above 180.

Turning to `COc1cc(OC)c2c(C)[n+](-c3ccc(C(C)C)cc3)c(C)cc2c1` [D], the Therapeutic index in data set [1] came out at 18.

`COc1cc(OC)c2c(C)[n+](-c3ccccc3OC)c(C)cc2c1` [E]: in data set [2], the Therapeutic index came to 86.

`COc1ccc(-[n+]2c(C)cc3cc(OC)cc(OC)c3c2C)c(OC)c1` [F]: in data set [2], the Therapeutic index is 72.

`COc1cc(OC)c2c(C)[n+](-c3ccc(Cl)cc3)c(C)cc2c1` [G]: in data set [3], the Therapeutic index came to 671.

`COc1cc(OC)c2c(C)[n+](-c3ccc(C(F)(F)F)cc3)c(C)cc2c1` [H]: the Therapeutic index in data set [3] is 324.

Turning to `COc1cc(OC)c2c(C)[n+](-c3ccc(NC(C)=O)cc3)c(C)cc2c1` [I], in data set [3], the Therapeutic index is listed as above 841.
